Experimental data published in patent US20250268857A1 (priority 2020, published 2025).

Test system: methicillin-resistant Staphylococcus aureus (IID1677)
Settings: 7,500 ppm agent diluted as appropriate

zinc gluconate was tested, and the “Minimum Inhibitory Concentration” value was 200 ppm.
